Data from article PMC3983159.

Tested on: Nc1ncnc2c1ncn2[C@@H]1O[C@H](COP(=O)(O)OP(=O)(O)OP(=O)(O)O)[C@@H](O)[C@H]1O
Assay: purified protein
Details: 1-5 mM ATP, 4 mM MgCl2, 100 mM Tris-HCl pH 8.0, 37 °C

EscN-Myc-His6 (Escherichia coli O127:H6 str. E2348/69)
Km: 0.73 ± 0.01 mM

SsaN-Myc-His6 (Salmonella enterica subsp. enterica serovar Typhimurium str. LT2)
Km: 0.81 ± 0.02 mM
